Holding throughout (test): pseudovirus neutralization IC50; higher = weaker neutralization
In test [1] the target is SARS-CoV-2 Omicron BA.1 spike pseudovirus. The method, then:
(§1)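 Single-round VSV luciferase pseudovirus mixed with antibody dilutions for 1 h and put on Huh-7 cells for about a day; IC50 from the dose curve.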

Test [2] has as its target SARS-CoV-2 Omicron BA.2 spike pseudovirus. As to the method:
as §1

Test [3] addresses SARS-CoV-2 Omicron BA.2.75 spike pseudovirus. As to the method: as §1
The target in test [4] is SARS-CoV-2 Omicron BA.5 spike pseudovirus. The method, then:
as §1

For test [5], the target named is SARS-CoV-2 Omicron BQ.1.1 spike pseudovirus. As to the method: as §1
Test [6] concerns the target SARS-CoV-2 Omicron XBB spike pseudovirus. The method, then:
as §1

For test [7], the target named is SARS-CoV-2 early D614G spike pseudovirus. The method, then:
as §1

The source of these data is the supplement of paper PMC9931576.

Human monoclonal antibodies against the spike receptor-binding domain (heavy:light variable regions). IC50 against pseudoviruses bearing the spike of naturally observed variants; lower = stronger; >10 µg/ml means not reached at the top dose. No active / inactive call. The stated detection limit is 0.0005 µg/ml; values near or below 0.001 µg/ml lie at the floor of the assay.

B1: BD56-1573 (protein)
chain 1: QVQLVQSGAEVKKPGSSVKVSCKASGDTFSNYGFSWVREAPGQGLEWMGRIIPVFGKTNYAQKFQGRVTIGADTSTSTAYMELSRLTSEDTAVYYCARDKVLGIQIWLDYFDNWGQGTLVTVSS
chain 2: QSVLTQPPSVSGAPGQRVTISCTGSSSNIGAGYNVHWYQLLPGTAPKLLIYDNNNRPSGVPDRFSGSKSGTSASLAITGLQAEDEADYYCQSYDSSLSAFYVFGTGTKVTVL
Consider B1, for which the “pseudovirus neutralization IC50” value in test [1] is 0.0408 µg/mL; in test [2] it was 0.0253 µg/mL; in test [3], 0.0222 µg/mL; in test [4], 6.1 µg/mL; in test [5] it was > 10 µg/mL; in test [6], > 10 µg/mL. For the same molecule, the “pseudovirus neutralization IC50” value in test [7] stood at 0.0376 µg/mL.

B2: BD56-1553 (protein)
chain 1: QVQLVESGGGVVQPGRSLRLSCAVSGFTFSHYVMHWVRQAPGKGLEWVAVILYDGSNRYYADSVKGRFTISRDNSKNTLYLQMNSLRVEDTAVYYCAKAQGPYCGGGTCYSSPFDFWGQGTLVTVSS
chain 2: DIQMTQSPSSLSASVGDRVTITCQASQDISNYLNWYQQKPGKAPKLLIYGASNLETGVPSRFSGSGSGTDFAFSISSLQPEDIATYYCQKYDNLPPLFGPGTKVDIK
Regarding B2, the “pseudovirus neutralization IC50” value in test [1], in test [2], in test [3], in test [4], in test [5] and in test [6] was > 10 µg/mL each time. In test [7], the “pseudovirus neutralization IC50” value is > 10 µg/mL.

B3: BD56-1566 (protein)
chain 1: QVQLVQSGAEVKKPGASVTVSCQASGYTFTSYYIHWVRQAPGQGLEWMGIINPDGGSTTYAQKFQGRVTLTSDTSTTTVYMELSSLRSEDTAMYFCARGSGIIPVLRRNFDCWGQGTLVTVSS
chain 2: DIVMTQSPDSLAVSLGERATINCKSSQSVSYSSNNKNYLAWYQQKPGQPPKLLIYWASTRESGVPDRFSGSGSGTDFTLTISSLQAEDVAVYYCQQYYNTPFTFGPGTKVDFK
For B3, the “pseudovirus neutralization IC50” value in test [1], in test [2], in test [3], in test [4], in test [5] and in test [6] was > 10 µg/mL throughout. In test [7], the “pseudovirus neutralization IC50” value is > 10 µg/mL.

B4: BD56-1587 (protein)
chain 1: QVQLQESGPGLVKPSGTLSLTCAVSGGSISSSYWWTWVRQSPGKGLEWVGEIFHTGSTNYNPSLKSRITMSVDKSKNQFSLILSSVTAADTAVYYCARRSSGYDGYWYFDLWGRGTLVTVSS
chain 2: DIQMTQSPSSLSASVGDRVTITCRASQSISNYLNWYQHKPGKAPKLLIYAASTLQSGVPSRFTVSGSGTDFTLTIDSLQPEDFATYYCQQSYSTPLTFGGGTKVEIK
With B4, the “pseudovirus neutralization IC50” value in test [1], in test [2], in test [3], in test [4], in test [5] and in test [6] was > 10 µg/mL in each case. For the same molecule, the “pseudovirus neutralization IC50” value in test [7] was > 10 µg/mL.

B5: BD56-1577 (protein)
chain 1: EVLLVESGGGFVKPGGSLRLSCAASGFSLRDAWMNWVRQAPGKGLEWVGRINSETDGGTPDYAAPVKGRFIISRDDSKNTLYLQMNSLKIEDTGVYYCWFGELLHYYNYGLDVWGQGTTVTVSS
chain 2: DIQMTQSPSTLSASVGDRVTITCRASQSITTWLAWYQQRPGKAPKLLIYKASTLQTGVPSRFSGSGSGTEFTLTIDSLRPDDFATYYCQQYDSHLYTFGQGTKLEIK
For B5, the “pseudovirus neutralization IC50” value in test [1] turned out to be 2.7 µg/mL; in test [2], 1.24 µg/mL; in test [3], 1.16 µg/mL; in test [4], 0.774 µg/mL; in test [5], 1.02 µg/mL; in test [6] it was 1.27 µg/mL. Further, the “pseudovirus neutralization IC50” value in test [7] was determined as 1.18 µg/mL.

B6: BD56-1560 (protein)
chain 1: EVQLVQSGAEVKKPGESLKISCKASGYSFISHWIAWVRQMPGKGLEWMGVIYPGDSDTRYSPSFQGQVTISADKSITTAYLHWSRLKASDTAIYYCARLPTVASWFDLWGQGTLVIVPS
chain 2: QSVLTQPPSASGTPGQRVTISCSGRSSNIGSNPVSWYLQLPETAPKLLIYNNNARPSGVPDRFSGSKSGTSASLAISGLQSEDEADYYCAAWDDSLNVVLFGRGTKLTVL
On to B6, for which the “pseudovirus neutralization IC50” value was found to be 1.48 µg/mL in test [1]; 0.608 µg/mL in test [2]; 0.858 µg/mL in test [3]; 0.728 µg/mL in test [4]; 0.757 µg/mL in test [5]; 1.65 µg/mL in test [6]. In addition, the “pseudovirus neutralization IC50” value in test [7] is 1.06 µg/mL.

B7: BD56-1548 (protein)
chain 1: QLQLQESGPGLVKPSETLSLTCSVSGGPISRTSYYWVWIRQPPGKGLEWIGSIYYSGSTYYNPSLKSRVTISVDTSRNQFSLKLSSVTAADSAVYYCARPGGTWIQPWSDASDIWGQGTMVTVSS
chain 2: EIVLTQSPATLSLSPGERATLSCRASQSISTYLAWYQQKPGQAPRLLIYDASNRATGIPARFSGSGSGTDFTLTISSLEPEDFAVYYCQQRDNWPLLTFGGGTKVEIK
As for B7, the “pseudovirus neutralization IC50” value in test [1], in test [2], in test [3], in test [4], in test [5] and in test [6] was > 10 µg/mL throughout. The “pseudovirus neutralization IC50” value in test [7] was > 10 µg/mL.

B8: BD56-1574 (protein)
chain 1: EVQLVESGGGLVQPGRSLRLSCAASGFSFDDYAMHWVRQVPGKGLEWVSGLGWNGGGIGYADSVRGRFTISRDNAKNSLYLQMNSLRAEDTAFYYCAKAGCSSTSCYYYYYYMDVWGKGTTVTVSS
chain 2: EIVLTQSPGTLSLSPGERATLSCRASQSVGSTYLAWYQQKPGQAPRLLIYGASRRATGIPDRFSGSGSGTDFTLTISRLEPEDFAVYYCQQYGSSLAFSFGQGTKLEIK
In the case of B8, the “pseudovirus neutralization IC50” value in test [1], in test [2], in test [3], in test [4], in test [5] and in test [6] was > 10 µg/mL in each case. Also, the “pseudovirus neutralization IC50” value in test [7] was > 10 µg/mL.

B9: BD56-1567 (protein)
chain 1: EVQLVESGGDLAQPGGSLRLSCEASGRTFSSYEMNWVRQAPGKGLEWVSHISSSGTTISYADSVKGRFTVSRDNTKNSLFLQMNSLRVEDTAVYYCASGLRYSSSWVVADYYYYAMDVWGQGTTVTVSS
chain 2: DIQMTQSPSSLSASVGDRVTITCRASQTISNYLNWYQQKPGKAPKLLIYAASSLHSGVPSRFSGSRSGTDFTLTISSLQPEDFATYYCQQSYSTPYTFGQGTKLEIK
B9: the “pseudovirus neutralization IC50” value in test [1], in test [2], in test [3], in test [4], in test [5] and in test [6] was > 10 µg/mL in each case. The “pseudovirus neutralization IC50” value in test [7] is > 10 µg/mL.

B10: BD56-1559 (protein)
chain 1: QLQLQASGPGLVKPSETLSLTCTVSGGSISSSSYYWGWIRQPPGKGLEWIGSFYHSGSIYYNPSLQSRVTISADTSENQFSLKLSSVTAADTAIYYCARQRFGYCSGAACYGDWYFDLWGRGTLVTVSS
chain 2: DIQMTQSPSTLSASVGDRVTITCRASQIISSWLAWYQQKPGKAPNLLIYKASSLESGVSSRFSGSGSGTEFTLTISSLQPDDFATYYCQQYNSYPWTFGQGTKVEIK
Take B10: the “pseudovirus neutralization IC50” value in test [1], in test [2], in test [3], in test [4], in test [5] and in test [6] was > 10 µg/mL each time. In addition, in test [7], the “pseudovirus neutralization IC50” value was > 10 µg/mL.

B11: BD56-1546 (protein)
chain 1: QVQLVESGGGVVQPGRSLRLSCAASAFTFRSFDMHWVRQAPGKGLEWVAAIWYDGSNKYYADSVKGRFTISRDNSKNTLYLQMNSLRVEDTAVYYCATAVVAAGLAEYFQHWGRGTLVTVSS
chain 2: DIQMTQSPSSLSASVGDRVIITCRASQGISNFLAWFQQKPGKAPKSLIYAASSLHSGVPSKFSGSESGTDFTLTISSLQPEDFATYYCQQYHSFPYTFGQGTKLEIK
B11: the “pseudovirus neutralization IC50” value in test [1], in test [2], in test [3], in test [4], in test [5] and in test [6] was > 10 µg/mL throughout. The “pseudovirus neutralization IC50” value in test [7] is > 10 µg/mL.

B12: BD56-1586 (protein)
chain 1: QLQLQESGPGLVKPSETLSLTCTVSGGSISSSTYYWGWIRQPPGKGLEWIGSIYYSGSTHYNPSLKSRLTMSIDTSRNEFSLKLTSVTAADTAMYYCVRVRSSANIMLRGDFDYWGQGTLVTVSS
chain 2: QSALTQPASVSGSPGQSITISCTGTSSDVGSYNLVSWYQQLPGKAPKLMIYEVNKRPSGVSNRFSGSKSGNTASLTISGLQADDEADYYCCSLAISYTWVFGGGTKLTVL
Regarding B12, the “pseudovirus neutralization IC50” value in test [1], in test [2], in test [3], in test [4], in test [5] and in test [6] was > 10 µg/mL in each case. For the same molecule, the “pseudovirus neutralization IC50” value in test [7] is > 10 µg/mL.
